Measured values from PubChem BioAssay AID720535 (National Center for Advancing Translational Sciences (NCATS), 2013).
The entries are a selection whose mix differs from that of the whole data set. Results filed as inconclusive are left out. The source made the active and inactive calls. The call rests on the fitted dose curve; in most records, active means well fitted inhibition curve with a large enough effect; inconclusive means small, poorly fitted or top-dose-only effect; inactive means flat fitted curve, though single readings scatter.

Experiment: qHTS for Inhibitors of TGF-b: Cytotox Counterscreen for Cherry Picks; further: nearly all actives have a fitted effect of over 70% in size
Conditions: HepG2 CAGA-GFP viability, ATP luminescence, 18 h; cells stimulated with TGF-beta, 500 pg/mL
From the text: TGF-b is a main component in the TGF-b signaling pathway which plays diverse roles in cellular and development pathways. TGF-b is mediated by transcription factors called "Smads". Although the Smad-dependent pathway is the primary canonical TGF-b signaling mode, TGF-b1 can also activate alternative signaling pathways, including those involving MAPK (ERK, JNK and p38). This interaction may mediate or enhance Smad-dependent responses, or can exert Smad-independent effects. The complexity of this signaling cascade allows the TGF-b superfamily to perform unique, overlapping or redundant functions. […] We aim to identify Smad3-small molecule antagonists using a quantitative high throughput screening (qHTS) approach. […]
Suspensions of trypsinized HEPG2 CAGA-GFP cells were dispensed into white, tissue culture-treated, solid 1536-well plates at 5uL/well (1000 cells/well final concentration) in DMEM medium supplemented with 1% FBS. […] Two uL of CellTiter Glo (Promega), a luminescence-based viability reagent, was dispensed, followed by a 10 minute room temperature incubation. The plates were then measured on a PerkinElmer ViewLux plate reader for luminescence (clear filter) using a 5 second exposure. The %Activity was determined from the corrected luminescence values. […] Concentration-response curves were fitted to the signals arising from the resulting luminescence. […]
Potency means the concentration at half of the fitted maximal effect.

Compound | Potency
CC(=O)OCC12CC(OC(=O)CC(C)C)C(C)=CC1OC1C(O)C(OC(C)=O)C2(C)C12CO2 (stereo unspecified) | active: 461 nM
